Results of unrelated studies side by side (data: NIAID ChemDB).

All rows: target-level tests; agent: HIV-1; protein: Reverse transcriptase

Two numbers with a dash give a range or band. Conditions beyond the fields shown may differ between rows. ICn is the concentration giving n% inhibition. An empty or dashed field is not shown.

| smiles | changes | read by | strain or isolate | measure | value |
|---|---|---|---|---|---|
| CCN1c2ncc(CCOc3ccc(-c4cc(Cl)c(C(=O)O)cc4F)cc3C)cc2C(=O)N(C)c2cccnc21 | - | nucleotide incorporation / radiometric | IIIB | IC50 | <0.05 µM |
| CC(C)(O)C#Cc1ccc(NC(=O)CSc2nnnn2-c2cc(F)cc(C(F)(F)F)c2Cl)c(Cl)c1 | - | PicoGreen / fluorescence | WT | IC50 | <1 µM |
| CCN1c2ncc(CCOc3cccc(-c4ccccc4)c3)cc2C(=O)N(C)c2cccnc21 | RT-K103N Y181C | nucleotide incorporation / radiometric | IIIB | IC50 | >0.1 µM |
| CCN1c2ncc(CCOc3ccc(C(=O)O)c4c3CCCC4)cc2C(=O)N(C)c2ccc(OC)nc21 | RT-Y188L | nucleotide incorporation / radiometric | - | IC50 | 0.1–1 µM |
| CCN1c2ncc(CCOc3ccc(-c4ccc(CC(=O)O)cc4)cc3)cc2C(=O)N(C)c2cccnc21 | - | nucleotide incorporation / radiometric | IIIB | IC50 | <0.05 µM |
| CCN1c2ncc(CCOc3ccc(NS(=O)(=O)C(F)(F)F)c4ccccc34)cc2C(=O)N(C)c2ccc(F)nc21 | RT-Y188L | nucleotide incorporation / radiometric | - | IC50 | >1 µM |
| Cc1ccc(-n2nnnc2SCC(=O)Nc2ccc(-c3ccc(CC(N)=O)cc3)cc2[N+](=O)[O-])c(Cl)c1 | - | PicoGreen / fluorescence | WT | IC50 | <1 µM |
| CCN1c2ncc(CCOc3ccc(-c4cccc(C(=O)O)c4)cc3C)cc2C(=O)N(C)c2cccnc21 | - | nucleotide incorporation / radiometric | IIIB | IC50 | <0.05 µM |
| CCN1c2ncc(CCOc3ccc(CCC(=O)O)c4c3CCCC4)cc2C(=O)N(C)c2cccnc21 | RT-Y188L | nucleotide incorporation / radiometric | - | IC50 | >1 µM |
| CCN1c2ncc(CCOc3ccc(-c4ccc(C(=O)O)cc4)c(C)c3)cc2C(=O)N(C)c2cccnc21 | RT-K103N Y181C | nucleotide incorporation / radiometric | IIIB | IC50 | >0.1 µM |
| CC(C)(C)c1ccc(-n2nnnc2SCC(=O)Nc2ccc(-c3ccc(OCCN4CCC(O)CC4)cc3)cc2Cl)c(Cl)c1 | RT-K103 Y181C | PicoGreen / fluorescence | - | IC50 | <1 µM |
| CCN1c2ncc(CCOc3ccc(-c4occc4C(=O)O)cc3)cc2C(=O)N(C)c2cccnc21 | - | nucleotide incorporation / radiometric | IIIB | IC50 | >0.1 µM |
| Oc1ccc2c(c1)CN(c1nn3c(C4CC4)nnc3c3ccccc13)CC2 | - | RT activity / fluorescence | IIIB | IC50 | 0.47 µM |
| CCN1c2ncc(CCOc3ccc(N(Cc4ccc(C(=O)O)cc4)C(C)=O)cc3C)cc2C(=O)N(C)c2cccnc21 | RT-K103N Y181C | nucleotide incorporation / radiometric | IIIB | IC50 | >0.1 µM |
| CC(C)(C#Cc1ccc(NC(=O)CSc2nnnn2-c2ccc(C3CC3)cc2Cl)c(Cl)c1)NC(=O)CN1CCN(CCn2cccc2)CC1 | RT-K103 Y181C | PicoGreen / fluorescence | - | IC50 | <1 µM |
| CCN1c2ncc(CCOc3ccc(CC(C)C(=O)O)c4ccccc34)cc2C(=O)N(C)c2ccc(C)nc21 | RT-Y188L | nucleotide incorporation / radiometric | - | IC50 | >1 µM |
| CC(C)(C#Cc1ccc(NC(=O)CSc2nnnn2-c2ccc(C3CC3)cc2Cl)c(Cl)c1)C(=O)NCC1CCCO1 | RT-K103 Y181C | PicoGreen / fluorescence | - | IC50 | <1 µM |
| N#Cc1ccc2c(c1)CN(c1nn3c(C4CC4)nnc3c3ccccc13)CC2 | - | RT activity / fluorescence | IIIB | IC90 | 3 µM |
| CCN1c2ncc(CCOc3ccc(-c4cc(C(=O)O)on4)cc3C)cc2C(=O)N(C)c2cccnc21 | - | nucleotide incorporation / radiometric | IIIB | IC50 | <0.05 µM |
| CC(C)(C#Cc1ccc(NC(=O)CSc2nnnn2-c2ccc(C3CC3)cc2Cl)c(Cl)c1F)C(=O)O | RT-K103 Y181C | PicoGreen / fluorescence | - | IC50 | <1 µM |
| CC(C)c1nnc2c3ccccc3c(N3CCc4ccc(N)cc4C3)nn12 | - | RT activity / fluorescence | IIIB | IC50 | 0.22 µM |
| O=C(COc1ccc(NC(=O)CSc2nnnn2-c2ccc(C3CC3)cc2Cl)c(Cl)c1)NCCc1cccc[n+]1[O-] | - | PicoGreen / fluorescence | WT | IC50 | <1 µM |
| Cc1nnc2c3ccccc3c(N3CCc4ccc(N)cc4C3)nn12 | - | RT activity / fluorescence | IIIB | IC90 | 3.15 µM |
| CC(C)(C)c1ccc(-n2nnnc2SCC(=O)Nc2ccc(C(=O)NC(CO)C(=O)O)cc2Cl)c(Cl)c1 | - | PicoGreen / fluorescence | WT | IC50 | <1 µM |
| CCN1c2ncc(CCOc3ccc4cc(C(=O)NN)ccc4c3)cc2C(=O)N(C)c2cccnc21 | - | nucleotide incorporation / radiometric | WT | IC50 | <0.1 µM |
| CN(C)CCCNC(=O)C(C)(C)C#Cc1ccc(NC(=O)CSc2nnnn2-c2ccc(CC3CC3)cc2Cl)c(Cl)c1 | - | PicoGreen / fluorescence | WT | IC50 | <1 µM |
| CCN1c2ncc(CCOc3ccc(/C=C/C(=O)O)c4ccccc34)cc2C(=O)Nc2c(C)ccnc21 | RT-V106A | nucleotide incorporation / radiometric | - | IC50 | 0.1–1 µM |

Repeating the final 3 entries:

smiles	changes	read by	strain or isolate	measure	value
CCN1c2ncc(CCOc3ccc4cc(C(=O)NN)ccc4c3)cc2C(=O)N(C)c2cccnc21	-	nucleotide incorporation / radiometric	WT	IC50	<0.1 µM
CN(C)CCCNC(=O)C(C)(C)C#Cc1ccc(NC(=O)CSc2nnnn2-c2ccc(CC3CC3)cc2Cl)c(Cl)c1	-	PicoGreen / fluorescence	WT	IC50	<1 µM
CCN1c2ncc(CCOc3ccc(/C=C/C(=O)O)c4ccccc34)cc2C(=O)Nc2c(C)ccnc21	RT-V106A	nucleotide incorporation / radiometric	-	IC50	0.1–1 µM